The assay concerns the target MERS E PBM (MERS coronavirus). The assay can be described thus: holdup assay.

Consider one substance from PMC9482650, “Quantitative fragmentomics allow affinity mapping of interactomes” (Nature Communications, 2022).

Take “His6-MBP-SNX27 PDZ (from UniProt Q96L92 43-136) (domain or fragment)”: the pKd (pKd (-log10 of Kd in M)) turned out to be 4.56.
